Measurements reported in PubChem BioAssay AID624099 (ICCB-Longwood, 2012).

Aim: 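Host factors E2 relies on to silence an HPV18 LCR reporter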 (primary screen)
System: human C33A cervical carcinoma cells (HPV-negative) stably expressing BPV1 E2 and an HPV18 LCR luciferase reporter
Reagent: siRNA pool against human genes, 40 nM
Time to read-out: 72 h
Read-out: 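HPV18 LCR reporter light per well, converted to plate-wise z-scores that exclude control wells, and averaged over triplicate plates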
Scale: mean z-score and z-score: higher = stronger reporter signal, weaker E2 silencing
Hit rule: 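Hit if mean z-score reaches 2 and two or more of three replicate z-scores also reach 2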
Shown is an unselected part of about 21,000 reagents. Over the whole deposit, 497 (2.4%) are marked active. 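Higher z means weaker E2 silencing; only reporter increases were scored, and knock-downs that hurt cell survival may mask genuine repressor factors.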 Unmarked entries are inactive. The numbers tell different reagents against one gene apart.

gene | reagent no. | mean z-score | z-score, replicate A | z-score, replicate B | z-score, replicate C
GJA4 (GeneID 2701) | 1 | -0.41 | -0.25 | -0.56 | -0.43
METTL18 (GeneID 92342) | 1 | 0.12 | 0.04 | 0.1 | 0.21
OSBPL3 (GeneID 26031) | 1 | -1.15 | -1.46 | -0.94 | -1.06
DUX4L8 (GeneID 26583) | 1 | 0.8 | 0.93 | – | 0.67
UGT2B15 (GeneID 7366) | 1 | 0.42 | 0.34 | 0.39 | 0.53
TPCN1 (GeneID 53373) | 1 | 1.67 | 1.77 | 1.5 | 1.75
CDHR4 (GeneID 389118) | 1 | -0.34 | -0.63 | -0.24 | -0.16
MAOA (GeneID 4128) | 1 | -1.34 | -1.3 | -1.58 | -1.14
JPH2 (GeneID 57158) | 1 | -1.27 | -1.11 | -1.52 | -1.19
FBXL5 (GeneID 26234) | 1 | 0.09 | 0.32 | -0.17 | 0.1
ZNF25 (GeneID 219749) | 1 | 0.65 | 0.81 | 0.49 | –
NAXE (GeneID 128240) | 1 | -0.94 | -1.16 | -0.79 | -0.86
MATN4 (GeneID 8785) | 1 | -0.25 | 0.07 | -0.23 | -0.59
TSEN54 (GeneID 283989) | 1 | 1.6 | 1.99 | 1.45 | 1.37
CMPK1 (GeneID 51727) | 1 | 1.04 | 1.19 | 1.03 | 0.91
HELZ (GeneID 9931) | 1 | 0.7 | 0.71 | 0.63 | 0.77
MZT2B (GeneID 80097) | 1 | 0.48 | 0.33 | 0.86 | 0.24
ONECUT2 (GeneID 9480) | 1 | -0.43 | -0.48 | -0.29 | -0.51
THAP7 (GeneID 80764) | 1 | -0.83 | -1.13 | -0.71 | -0.64
COLEC12 (GeneID 81035) | 1 | -0.44 | -0.27 | -0.57 | -0.5
VCF1 (GeneID 84923) | 1 | -1.24 | -1.45 | -1.3 | -0.96
ITGA9 (GeneID 3680) | 1 | -0.22 | -0.12 | -0.43 | -0.11
SNX27 (GeneID 81609) | 1 | 0.42 | 0.41 | 0.35 | 0.5
LINC01879 (GeneID 400661) | 1 | 1.22 | 0.99 | 1.31 | 1.36
OR5K4 (GeneID 403278) | 1 | -1.21 | -1.04 | -1.02 | -1.57
PRKY (GeneID 5616) | 1 | 2.16 (active) | 2.42 | 1.78 | 2.27
C20orf202 (GeneID 400831) | 1 | 0.37 | 0.48 | 0.37 | 0.25
RFC4 (GeneID 5984) | 1 | -0.21 | 0.12 | -0.74 | 0
SH2D1B (GeneID 117157) | 1 | -0.74 | -0.65 | -0.78 | -0.78
MRO (GeneID 83876) | 1 | -0.65 | -0.65 | -0.78 | -0.53
COL25A1 (GeneID 84570) | 1 | 0.24 | 0.01 | 0.57 | 0.13
MCIDAS (GeneID 345643) | 1 | 0.43 | 0.48 | 0.41 | 0.39
S100A3 (GeneID 6274) | 1 | 1.34 | 1.45 | 1.31 | 1.25
LINC02774 (GeneID 339529) | 1 | -0.12 | -0.01 | -0.2 | -0.15
ING5 (GeneID 84289) | 1 | -0.06 | 0.06 | -0.05 | -0.17
ING5 (GeneID 84289) | 2 | -0.2 | 0.32 | -0.76 | -0.18
DNAJC5B (GeneID 85479) | 1 | 0.15 | 0.19 | -0.03 | 0.28
PAIP2B (GeneID 400961) | 1 | -0.26 | -0.48 | -0.23 | -0.07
GNGT1 (GeneID 2792) | 1 | 0.55 | 0.93 | 0.5 | 0.22

In a second layout: 9 of the entries above.
{"gene":"JPH2 (GeneID 57158)","reagent no.":1,"mean z-score":-1.27,"z-score, replicate A":-1.11,"z-score, replicate B":-1.52,"z-score, replicate C":-1.19}
{"gene":"FBXL5 (GeneID 26234)","reagent no.":1,"mean z-score":0.09,"z-score, replicate A":0.32,"z-score, replicate B":-0.17,"z-score, replicate C":0.1}
{"gene":"ZNF25 (GeneID 219749)","reagent no.":1,"mean z-score":0.65,"z-score, replicate A":0.81,"z-score, replicate B":0.49}
{"gene":"NAXE (GeneID 128240)","reagent no.":1,"mean z-score":-0.94,"z-score, replicate A":-1.16,"z-score, replicate B":-0.79,"z-score, replicate C":-0.86}
{"gene":"MATN4 (GeneID 8785)","reagent no.":1,"mean z-score":-0.25,"z-score, replicate A":0.07,"z-score, replicate B":-0.23,"z-score, replicate C":-0.59}
{"gene":"TSEN54 (GeneID 283989)","reagent no.":1,"mean z-score":1.6,"z-score, replicate A":1.99,"z-score, replicate B":1.45,"z-score, replicate C":1.37}
{"gene":"CMPK1 (GeneID 51727)","reagent no.":1,"mean z-score":1.04,"z-score, replicate A":1.19,"z-score, replicate B":1.03,"z-score, replicate C":0.91}
{"gene":"HELZ (GeneID 9931)","reagent no.":1,"mean z-score":0.7,"z-score, replicate A":0.71,"z-score, replicate B":0.63,"z-score, replicate C":0.77}
{"gene":"MZT2B (GeneID 80097)","reagent no.":1,"mean z-score":0.48,"z-score, replicate A":0.33,"z-score, replicate B":0.86,"z-score, replicate C":0.24}

Additional results follow:
gene | reagent no. | mean z-score | z-score, replicate A | z-score, replicate B | z-score, replicate C
HMGB4 (GeneID 127540) | 1 | 1.67 | 1.68 | 1.35 | 1.96
ALKAL1 (GeneID 389658) | 1 | 0.96 | 1 | 0.71 | 1.17
RIOK3 (GeneID 8780) | 1 | 0.24 | 0.27 | 0.24 | 0.21
SERPINB12 (GeneID 89777) | 1 | -0.72 | -0.59 | -0.71 | -0.85
MRPL20-AS1 (GeneID 148413) | 1 | 0.46 | 0.65 | 0.2 | 0.54
GPLD1 (GeneID 2822) | 1 | -0.63 | -0.61 | -0.54 | -0.75
YARS1 (GeneID 8565) | 1 | 0.27 | 0.34 | 0.4 | 0.08
KCNMA1 (GeneID 3778) | 1 | 0.18 | 0.36 | -0.07 | 0.26
CHEK1 (GeneID 1111) | 1 | -0.42 | -0.18 | -0.19 | -0.9
TIMM21 (GeneID 29090) | 1 | -0.78 | -0.8 | -0.85 | -0.71
WDR74 (GeneID 54663) | 1 | -0.87 | -0.89 | -0.72 | -1.02
SYCP2 (GeneID 10388) | 1 | -1.44 | -1.48 | -1.43 | -1.4
LONP1 (GeneID 9361) | 1 | 0.68 | 0.55 | 0.98 | 0.52
ARHGEF6 (GeneID 9459) | 1 | -0.71 | -0.5 | -0.92 | -0.7
DENND2A (GeneID 27147) | 1 | 0.96 | 0.83 | 1.51 | 0.54
NACA3P (GeneID 389240) | 1 | -0.8 | -1.03 | -1.12 | -0.25
DGKZ (GeneID 8525) | 1 | -0.4 | -0.29 | -0.52 | -0.41
SLA (GeneID 6503) | 1 | 1.51 | 1.44 | 2.01 | 1.09
DUSP16 (GeneID 80824) | 1 | 0.3 | 0.41 | 0.2 | 0.31
LOC389710 (retired record) (GeneID 389710) | 1 | -1.02 | -0.74 | -1.5 | -0.81
TSACC (GeneID 128229) | 1 | -0.21 | -0.22 | -0.16 | -0.24
ACVR1B (GeneID 91) | 1 | 0.13 | -0.33 | 0.57 | 0.17
SPANXB1 (GeneID 728695) | 1 | 0.85 | 1.02 | 0.89 | 0.64
SPANXB1 (GeneID 728695) | 2 | 0.98 | 0.86 | 1.09 | 0.98
HOXB7 (GeneID 3217) | 1 | -0.08 | 0.07 | -0.03 | -0.29
EBF4 (GeneID 57593) | 1 | -0.34 | -0.29 | -0.37 | -0.35
LIN7A (GeneID 8825) | 1 | 1.53 | 1.9 | 1.1 | 1.59
CDH9 (GeneID 1007) | 1 | -0.21 | -0.72 | 0.33 | -0.25
ING2 (GeneID 3622) | 1 | 0 | 0.18 | -0.03 | -0.15
SHLD1 (GeneID 149840) | 1 | 1.28 | 1.55 | 1.03 | 1.24
WWP1P1 (GeneID 339843) | 1 | -0.01 | -0.31 | 0.08 | 0.19
PARS2 (GeneID 25973) | 1 | -1.08 | -1.17 | -1.16 | -0.92
PTGES2-DT (GeneID 389791) | 1 | -0.02 | -0.17 | -0.05 | 0.16
LINC02389 (GeneID 400046) | 1 | 0.21 | 0.53 | 0.02 | 0.08
